A mixed list of measured activities; the numbers were collected in NIAID ChemDB.

Shared fields: whole-cell or culture tests; organism: HIV-1; method: p24; read-out: EC50

ECn: concentration that inhibits the pathogen or its effect by n%. An empty or dashed field is not shown. Lines come from different laboratories, so protocols vary.

SMILES | conditions | strain or isolate | changes | cells | value
CC(C)(c1cc2cnccc2o1)N1CCN(C[C@@H](O)C[C@@H](Cc2ccccc2)C(=O)N[C@H]2c3ccccc3OC[C@H]2O)[C@H](C(=O)NCC(F)(F)F)C1 |  | 4X (PR M46I L63P V82T I84V) Recombinant | PR-M46I L63P V82T I84V |  | 0.008 µM
CC(C)(C)NC(=O)[C@@H]1CN(Cc2cc3cc(CO)cnc3o2)CCN1C[C@@H](O)C[C@@H](Cc1ccccc1)C(=O)N[C@H]1c2ccccc2C[C@H]1O |  | IIIB |  | MT-4 | <0.0625 µM
CC[C@H](C)C(=O)O[C@H]1C[C@@H](C)C=C2C=C[C@H](C)[C@H](CC[C@@H]3C[C@@H](O)CC(=O)O3)[C@H]21 |  | 92RW009 R5X4 clinical variant |  | PBMC | <50 µM
C[C@H](Cn1cnc2c(N)ncnc21)OCP(=O)(O)O |  | WEJO Clinical isolates |  | PBMC | <0.005 µM
CCc1cc(NCc2nc3c(Cl)ccc(Cl)c3o2)c(=O)[nH]c1C |  | Clinical isolate (RT M41L) | RT-M41L | PBMC | <0.1 µM
COC(=O)[C@H](C)NP(=O)(OC[C@@H]1C=C[C@H](n2cc(C)c(=O)[nH]c2=O)O1)Oc1ccc(Br)cc1 |  | X165-9 NRTI resistant | RT-K20R D67N K103N T215Y | PBMC | 0.002 µM
Cc1cn([C@H]2C[C@H](N=[N+]=[N-])[C@@H](CO)O2)c(=O)[nH]c1=O |  | NL-XM WT |  | MT-4 | <0.02 µM
CNC(C)(C)c1nc(C(=O)NCc2ccc(F)cc2)c(O)c(=O)[nH]1 | 10% FBS | IIIB |  | MT-4 | <0.25 µM
O=c1[nH]cnc2c1ncn2[C@H]1CC[C@@H](CO)O1 |  | HXB2D |  | MT-4 | 7 µM
COC(=O)[C@H](C)NP(=O)(OC[C@@H]1C=C[C@H](n2cc(C)c(=O)[nH]c2=O)O1)Oc1ccc(Br)cc1 |  | S762-4 Clinical isolate ZDV-resistant | RT-M41L T215Y | PBMC | 0.008 µM
CC(C)(C)NC(=O)[C@@H]1CN(Cc2c[nH]c3ccccc23)CCN1C[C@@H](O)C[C@@H](Cc1ccccc1)C(=O)N[C@H]1c2ccccc2C[C@H]1O |  | IIIB |  | MT-4 | <0.05 µM
Nc1ccn([C@@H]2CO[C@H](CO)S2)c(=O)n1 |  | IIIB |  | Jurkat cells | 1.8 µM
COc1c(C)c2c(c(O)c1C/C=C(\C)CCC(=O)O)C(=O)OC2 |  |  | RT-K65R | PBMC | 0.17 µM
O=c1[nH]cnc2c1ncn2[C@H]1CC[C@@H](CO)O1 |  | IIIB |  | PBMC | <7.5 µM
Nc1ccn([C@@H]2CS[C@H](CO)O2)c(=O)n1 |  | 1617-1 NRTI resistant recombinant | RT-T69K K70G V75I F77L F116Y Q151M M184V | PBMC | >10 µM
O=c1[nH]cnc2c1ncn2[C@H]1CC[C@@H](CO)O1 |  | RT-M184V XM-M184V | RT-M184V | PBMC | <25 µM
CC(C)(C)NC(=O)[C@@H]1CN(Cc2cc3cccnc3s2)CCN1C[C@@H](O)C[C@@H](Cc1ccccc1)C(=O)N[C@H]1c2ccccc2C[C@H]1O |  | IIIB |  | MT-4 | <0.0125 µM
C[C@H](Cn1cnc2c(N)ncnc21)OCP(=O)(O)O |  | N119 (NNRTI-resistant RT Y181C) | RT-Y181C | MT-2 | 0.25 µM
CC(C)(c1cc2cnccc2o1)N1CCN(C[C@@H](O)C[C@@H](Cc2ccccc2)C(=O)N[C@H]2c3ccccc3OC[C@H]2O)[C@H](C(=O)NCC2CC2)C1 |  | NL4-3 |  | MT-4 | <0.046 µM
C/C(=C(/CCOC(=O)C(C)C)SS/C(CCOC(=O)C(C)C)=C(\C)N(C=O)Cc1cnc(C)nc1N)N(C=O)Cc1cnc(C)nc1N |  | LAV-1 |  | CEM/HIV-1(LAV-1) + CEM | >50 µM
CN(C)C(c1ccccc1)c1nc(C(=O)NCc2ccc(F)cc2)c(O)c(=O)[nH]1 | 10% FBS | IIIB |  | MT-4 | <0.31 µM
Nc1ccn([C@H]2CO[C@@H](CO)S2)c(=O)n1 |  | IIIB |  | MT-4 | 2.8 µM
O=c1[nH]cnc2c1ncn2[C@H]1CC[C@@H](CO)O1 |  |  | RT-T215Y K219Q | PBMC | 1.1 µM
CC(C)CN(C[C@@H](O)[C@H](Cc1ccccc1)NC(=O)O[C@H]1CCOC1)S(=O)(=O)c1ccc(N)cc1 |  | HXB2 | PR-M46I I47V I50V | PBMC | <1.94 µM
CC(C)=CCN1Cc2cc(Cl)cc3[nH]c(=S)n(c23)C[C@@H]1C |  | IIIB | RT-V106A | CEM | 0.5 µg/mL
CC(C)(c1cc2cnccc2o1)N1CCN(C[C@@H](O)C[C@@H](Cc2ccccc2)C(=O)N[C@H]2c3ccccc3OC[C@H]2O)[C@H](C(=O)NCc2cccs2)C1 |  | NL4-3 |  | MT-4 | <0.094 µM
O=c1[nH]cnc2c1ncn2[C@H]1CC[C@@H](CO)O1 |  | HXB2D (RT-K65R) | RT-K65R | CBMC | 22.7 ± 0.9 µM
Cc1nn(C)c2ncc(CN3CCN(C[C@@H](O)C[C@@H](Cc4ccccc4)C(=O)N[C@H]4c5ccccc5C[C@H]4O)[C@H](C(=O)NC(C)(C)C)C3)c(Cl)c12 |  | IIIB |  | MT-4 | <0.0125 µM
C=C(C)OC(=O)N1c2cc(Cl)ccc2NC(=S)C1(C)C |  | A2(RT-L74V G190E) | RT-L74V G190E | H9 | >1 µg/mL
CO[C@H]1O[C@@H](n2ccc(=O)[nH]c2=O)C[C@@H]1N=[N+]=[N-] |  | AZT-resistant (RT D67N K70R T215F K219Q) | RT-D67N K70N T215F K219Q | MT-2 | >200 µM
CC(C)(c1cc2cnccc2o1)N1CCN(C[C@@H](O)C[C@@H](Cc2ccccc2)C(=O)N[C@H]2c3ccccc3OC[C@H]2O)[C@H](C(=O)NCc2ccccc2)C1 |  | NL4-3 |  | MT-4 | <0.125 µM
O=C1N(Cc2ccc(CO)cc2)[C@H](Cc2ccccc2)[C@H](O)[C@@H](O)[C@@H](Cc2ccccc2)N1Cc1ccc(CO)cc1 |  | PB clinical isolate |  | PBMC | 0.04 µM
Nc1nc(NC2CC2)c2ncn([C@H]3C=C[C@@H](CO)C3)c2n1 |  | MDR (RT M41L D67N K70R M184V H208Y T215Y K219E) DRSM34 | RT-M41L D67N K70R M184V H208Y T215Y K219E | PBMC | 45.34 µM
CN1CCN(C)C(C)(c2nc(C(=O)NCc3ccc(F)cc3)c(O)c(=O)[nH]2)C1 | 10% FBS | IIIB |  | MT-4 | <0.06 µM
CC(C)(C)NC(=O)[C@@H]1CN(Cc2csc3ncccc23)CCN1C[C@@H](O)C[C@@H](Cc1ccccc1)C(=O)N[C@H]1c2ccccc2C[C@H]1O |  | IIIB |  | MT-4 | <0.006 µM
Cc1ccnc2c1NC(=O)c1cccnc1N2C1CC1 |  | A1(RT-G190E) | RT-G190E | H9 | >10 µg/mL
O=C(N[C@H]1c2ccccc2C[C@H]1O)[C@H](Cc1ccccc1)C[C@H](O)CN1CCN(Cc2cccnc2)C[C@H]1C(=O)NCC(F)(F)F |  | NL4-3 |  | MT-4 | <0.062 µM
CN(C)C(C)(c1nc(C(=O)NCc2ccc(F)cc2)c(O)c(=O)[nH]1)C(F)(F)F | 10% FBS | IIIB |  | MT-4 | <0.06 µM
CN[C@@H]1[C@H](O[C@@H]2OC[C@@H](O)[C@H](O)[C@H]2O)[C@@H](O)[C@H](O[C@H]2c3cc(C)c(C(=O)N[C@H](C)C(=O)O)c(O)c3-c3c(cc4c(c3O)C(=O)c3cc(OC)cc(O)c3C4=O)[C@@H]2O)O[C@@H]1C |  | NL4-3 X4 |  | PBMC | 0.69 µg/mL
Oc1ccc(/C=C/c2cc(O)cc(O)c2)cc1 |  | IIIB |  | PBMC (resting) + PBMC | ~5 µM
COC(c1ccccc1)c1nc(C(=O)NCc2ccc(F)cc2)c(O)c(=O)[nH]1 | 10% FBS | IIIB |  | MT-4 | <2.5 µM
CC(C)Nc1cccnc1N1CCN(C(=O)c2cc3cc(NS(C)(=O)=O)ccc3[nH]2)CC1 |  | HXB2 |  | PBMC | 0.01 µM
Cc1cn([C@H]2C[C@H](N=[N+]=[N-])[C@@H](CO)O2)c(=O)[nH]c1=O |  |  | RT-L74V T215Y K219Q | PBMC | 0.004 µM
C[C@H]1/C=C/[C@@]2(C)CC[C@@H](C(C)(C)O)[C@@H]2[C@@H](O)C[C@](C)(O)/C=C/C1 |  | 95BRSP007 R5X4 |  | Macrophage + Macrophages | 1.85 µM
COc1ccc2c(c1)N(C(=O)OC(C)C)[C@@H](CSC)C(=S)N2 |  | RTMC (RT D67N K70R T215F K219Q) | RT-D67N K70R T215F K219Q | CEM | 0.002 µg/mL
[B-][P@](=O)(OC[C@H]1O[C@@H](n2cc(C)c(=O)[nH]c2=O)C[C@@H]1N=[N+]=[N-])OP(=O)(O)C(F)(F)P(=O)(O)O |  | WEJO Clinical isolates |  | PBMC | 0.08 µM
O[C@H]1[C@H]2c3cc4c(cc3CN3CCC(=C[C@@H]1O)[C@H]23)OCO4 |  | IIIB |  | MT-4 | 0.4 µg/mL
Nc1nc(NC2CC2)c2ncn([C@H]3C=C[C@@H](CO)C3)c2n1 |  |  | MDR769 | PBMC | 0.9 µM
c1ccc2c(c1)ncc1cc3c(cc12)OCO3 |  | IIIB |  | MT-4 | 5 µg/mL
CC(C)(C)NC(=O)[C@@H]1CN(C(C)(C)c2cc3cnccc3o2)CCN1C[C@@H](O)C[C@@H](Cc1ccccc1)C(=O)N[C@H]1c2ccccc2OC[C@H]1O |  | NL4-3 |  | MT-4 | <0.008 µM
CC(c1nc(C(=O)NCc2ccc(F)cc2)c(O)c(=O)[nH]1)N(C)C | 50% human serum | IIIB |  | MT-4 | <0.5 µM
CC(C)CN(C[C@@H](O)[C@H](Cc1ccccc1)NC(=O)[C@@H](NC(=O)CNCc1cccc(F)c1)C(C)(C)C)S(=O)(=O)c1ccc(N)cc1 |  | NL4-3 |  | PBMC | <0.02 µM
Cc1ccnc2c1NC(=O)c1cccnc1N2C1CC1 |  | IIIB | RT-M184I | CEM | 0.021 µg/mL
CN(C)C1(c2nc(C(=O)NCc3ccc(F)cc3)c(O)c(=O)[nH]2)CC1 | 50% human serum | IIIB |  | MT-4 | <1 µM
CC(C)(C)CNC(=O)[C@@H]1CN(C(C)(C)c2cc3cnccc3o2)CCN1C[C@@H](O)C[C@@H](Cc1ccccc1)C(=O)N[C@H]1c2ccccc2OC[C@H]1O |  | NL4-3 |  | MT-4 | <0.031 µM
Cc1cn([C@H]2C[C@H](N=[N+]=[N-])[C@@H](CO)O2)c(=O)[nH]c1=O |  | Q252-2 Clinical isolate ZDV-resistant | RT-M41L L210W T215Y | PBMC | 1.7 µM
CN1CCCC1c1nc(C(=O)NCc2ccc(F)cc2)c(O)c(=O)[nH]1 | 10% FBS | IIIB |  | MT-4 | <0.15 µM

For reference, 5 entries again:

SMILES	conditions	strain or isolate	changes	cells	value
C[C@H](Cn1cnc2c(N)ncnc21)OCP(=O)(O)O		N119 (NNRTI-resistant RT Y181C)	RT-Y181C	MT-2	0.25 µM
Cc1cn([C@H]2C[C@H](N=[N+]=[N-])[C@@H](CO)O2)c(=O)[nH]c1=O		Q252-2 Clinical isolate ZDV-resistant	RT-M41L L210W T215Y	PBMC	1.7 µM
Cc1ccnc2c1NC(=O)c1cccnc1N2C1CC1		IIIB	RT-M184I	CEM	0.021 µg/mL
CC(C)(c1cc2cnccc2o1)N1CCN(C[C@@H](O)C[C@@H](Cc2ccccc2)C(=O)N[C@H]2c3ccccc3OC[C@H]2O)[C@H](C(=O)NCc2ccccc2)C1		NL4-3		MT-4	<0.125 µM
Cc1nn(C)c2ncc(CN3CCN(C[C@@H](O)C[C@@H](Cc4ccccc4)C(=O)N[C@H]4c5ccccc5C[C@H]4O)[C@H](C(=O)NC(C)(C)C)C3)c(Cl)c12		IIIB		MT-4	<0.0125 µM